A mixed list of measured activities; the numbers were collected in NIAID ChemDB.

All rows: cytotoxicity tests; read-out: CC50

CCn: concentration that lowers growth or viability of the cells by n%.

SMILES,read by,cell line,result
COc1ccc(N(C)C(=O)[C@H](Cc2ccccc2)NC(=O)c2cc(C(=O)N[C@@H](Cc3ccccc3)C(=O)N(C)c3ccc(OC)cc3)n(C)n2)cc1,XTT,MT-2,100 µM
O=C(NCc1ccc(Cl)cc1)c1c[nH]c2ccc(C#CCO)cc2c1=O,-,REF,58 µM
CCCCN1C(=O)c2ccccc2NC1c1ccc(OC)c(COc2ccc(F)cc2)c1,luminescence,HepG2 cells,>20 µM
CC(C)COc1nc(N)nc2c1ncn2/C=C1/C[C@@H]1CO,ATP,Akata,>20 µM
O=C1C[C@H](O)[C@@H](O)c2cccc(O)c21,-,NCI-H187,15.33 µg/mL
CCN(CC)CCN1C(=O)c2ccccc2NC1c1ccc(Br)cc1,luminescence,HepG2 cells,>30 µM
COc1ccc2[nH]c3c(C)c(C)c(OC)c(O)c3c2c1,resazurin,NCI-H187,8.2 µg/mL
COC(=O)c1c(N)c2cccnc2n(O)c1=O,ATP / luminescence,HOS,22.4 µM
CCN(CC)C(=O)OCC1CN(C(=O)c2cc(OC)c(OC)c(OC)c2)CCN1Cc1ccccc1,neutral red,MDM,>100 µM
CC[C@H](C)[C@H](NC(=O)[C@H](CCC(N)=O)NC(=O)[C@@H]1CCCN1C(C)=O)C(=O)N[C@H](C(=O)N[C@@H](CC(C)C)C(=O)O)[C@@H](C)O,-,PBL,>200 µg/mL
CCOC(=O)CCCCCOc1cccc(CN(C(=O)c2ccc(-c3ccc4cc[nH]c4c3)cc2)C(C)C)c1,-,HEK 293,>20 µM
COc1c(C)c(C)c2[nH]c3ccc(Cc4c(C)c(OC)c(O)c5c4[nH]c4ccccc45)cc3c2c1O,resazurin,NCI-H187,25.3 µg/mL
COC1=CC(=O)c2c(cc(OC)c(C(C)C3=C(O)c4c(cc(O)c(C(C)=O)c4O)C(=O)C3=O)c2O)C1=O,-,BCA,1.14 µg/mL
CCCCOc1c(OC)cc(C(=O)N2CCN(C(=O)c3cc(OC)c(OC)c(OC)c3)CC2COC(=O)N(CC)CC)cc1OC,neutral red,MDM,>100 µM
CC(=O)N[C@@H](CC(C)C)C(=O)N[C@@H](CC(C)C)C(=O)N[C@H](C=O)CCCN=C(N)N,-,L132,25 µg/mL
Oc1cc2c(cc1O)C1c3ccc(O)c(O)c3CC[C@]1(O)C2,MTT,MOLT-4,40 µM
COc1c(C)c(C)c2[nH]c3ccccc3c2c1OC,resazurin,NCI-H187,18.4 µg/mL
COc1ccc(N(C)C(=O)[C@H](Cc2ccccc2)NC(=O)COc2nc3ccccc3n(CC(=O)N[C@@H](Cc3ccccc3)C(=O)N(C)c3ccc(OC)cc3)c2=O)cc1,XTT,MT-2,50 µM
CCN(CC)C(=O)OCC1CN(C(=S)c2cc(OC)c(OC)c(OC)c2)CCN1C(=O)c1cc(OC)c(OC)c(OC)c1,neutral red,MDM,>10 µM
Cc1ncc(N(C)C(=O)[C@H](Cc2cc(F)cc(F)c2)NC(=O)NS(=O)(=O)N[C@@H](Cc2cc(F)cc(F)c2)C(=O)N(C)c2cnc(C)nc2)cn1,XTT,MT-2,25 µM
O=C1N(CCCCCCOc2ccc(C(F)(F)F)cc2)CCN1c1ccncc1,-,RD,>25 µM
N#Cc1cn(COC(CO)CO)c2nc(N)[nH]c(=O)c12,-,ALEX,~400 µM
Clc1ncnc2c1ncn2C1C[C@H]2C[C@@H]1c1cscc12,-,Huh,16 µM
CC(C)N(Cc1cccc(OCCCCCC(=O)OC(=O)O)c1)C(=O)c1ccc(-c2ccsc2)cc1,-,RAJI,>20 µM
CCN(CC)C(=O)OCC1CN(C(C#N)(c2ccccc2)c2ccccc2)CCN1C(=O)c1cc(OC)c(OC)c(OC)c1,neutral red,MDM,≥100 µM
CCN(CC)CCN1C(=O)c2ccccc2NC1c1ccc(OC)c(COc2ccc(NC(C)=O)cc2)c1,luminescence,HepG2 cells,>20 µM
CCCN(Cc1ccccc1OCC(=O)O)C(=O)c1ccc(-c2ccc3c(c2)OCO3)cc1,-,BJ,>20 µM
COc1nc(N)nc2c1ncn2/C=C1/C[C@@H]1CO,ATP,Akata,>20 µM
COc1ccc(CCNC(=O)CCO[Si](C)(C)C(C)(C)C)cc1OC,-,BJ,<13.5 µM
CC[C@H](C)[C@H](NC(C)=O)C(=O)NCC(=O)N[C@@H](CC(C)C)C(=O)N[C@H](C(=O)N[C@@H](CC(C)C)C(=O)N[C@@H](CC(N)=O)C(=O)N[C@@H](Cc1ccccc1)C(=O)O)[C@@H](C)O,-,PBL,>200 µg/mL
CCOc1nc(N)nc2c1ncn2/C=C1/C[C@@H]1CO,ATP,Akata,>20 µM
Nc1nc2c(ncn2[C@@H]2C[C@@H](F)[C@H](CO)O2)c(=O)[nH]1,-,PBM,>100 µM
CCCCCOc1nc(N)nc2c1ncn2/C=C1/C[C@@H]1CO,ATP,Akata,>20 µM
O=c1[nH]c(=O)n([C@@H]2C[C@@H](F)[C@H](CO)O2)cc1Cl,-,PBM,>100 µM
CCN(C(=O)[C@H](Cc1cc(F)cc(F)c1)NC(=O)CN1c2ccccc2N(CC(=O)N[C@@H](Cc2cc(F)cc(F)c2)C(=O)N(CC)c2ccc(OC(F)F)cc2)S1(=O)=O)c1ccc(OC(F)F)cc1,XTT,MT-2,100 µM
CCN(CC)C(=O)OCC1CN(C(=O)c2cc(OC)c(OC)c(OC)c2)CCN1C(=S)c1cc(OC)c(OC)c(OC)c1,neutral red,MDM,>100 µM
Clc1ncnc2c1ncn2C1C[C@H]2C[C@@H]1[C@@H]1CSC[C@H]21,-,Huh,>20 µM
Nc1ncnc2c1ncn2[C@@H]1C[C@@H](F)[C@H](CO)O1,-,PBM,>100 µM
Nc1ncnc2c1ncn2C1C[C@H]2C[C@@H]1c1cscc12,-,Huh,34 µM
CCCCOc1c(OC)cc(C(=O)N2CCN(Cc3ccccc3)CC2COC(=O)N(CC)CC)cc1OC,neutral red,MDM,≥20 µM
COc1cc(O)c2c(c1)[C@H](O)[C@@H](O)CC2=O,-,NCI-H187,12.08 µg/mL
CC(=O)N[C@H](C(=O)N[C@@H](CC(C)C)C(=O)N[C@@H](CC(N)=O)C(=O)N[C@@H](Cc1ccccc1)C(N)=O)[C@@H](C)O,-,PBL,>200 µg/mL
CC(C)(C)COc1nc(N)nc2c1ncn2/C=C1/C[C@@H]1CO,ATP,Akata,>20 µM
COc1ccc2[nH]c3c(C)c(C)c(OC)c(OC)c3c2c1,resazurin,NCI-H187,12.9 µg/mL
CCCCCCCCSc1nc(N)nc2c1ncn2/C=C1/C[C@@H]1CO,ATP,Akata,>20 µM
CSCC[C@H](NC(=O)[C@H](Cc1cnc[nH]1)NC(C)=O)C(=O)N[C@H](C(=O)N[C@@H](CC(C)C)C(=O)N[C@@H](CC(N)=O)C(=O)N[C@@H](Cc1ccccc1)C(=O)O)[C@@H](C)O,-,PBL,>200 µg/mL
Nc1ccc(-c2ccc(Nc3cc(=O)n(O)c4ncccc34)cc2)cc1,ATP / luminescence,HOS,2.44 µM
CCN(CC)C(=O)OCC1CN(C(=O)c2cc(OC)c(OC)c(OC)c2)CCN1,neutral red,MDM,>100 µM
CCn1cc(C(=O)O)c(=O)c2ccc(C)nc21,-,SK-K,125 µg/mL
CN(C(=O)[C@H](Cc1cc(F)cc(F)c1)NC(=O)CS(=O)(=O)N[C@@H](Cc1cc(F)cc(F)c1)C(=O)N(C)c1ccc2nccnc2c1)c1ccc2nccnc2c1,XTT,MT-2,100 µM
O=C1c2ccccc2NC(c2ccc(Br)cc2)N1c1ccco1,luminescence,HepG2 cells,>20 µM
O=C1CC[C@H](O)c2cc(O)cc(O)c21,-,BCA,2.96 µg/mL
CN(C(=O)[C@H](Cc1cc(F)cc(F)c1)NC(=O)NS(=O)(=O)N[C@@H](Cc1cc(F)cc(F)c1)C(=O)N(C)c1cnc2scnc2c1)c1cnc2scnc2c1,XTT,MT-2,100 µM

Again, the opening 4 rows:

SMILES | read by | cell line | result
COc1ccc(N(C)C(=O)[C@H](Cc2ccccc2)NC(=O)c2cc(C(=O)N[C@@H](Cc3ccccc3)C(=O)N(C)c3ccc(OC)cc3)n(C)n2)cc1 | XTT | MT-2 | 100 µM
O=C(NCc1ccc(Cl)cc1)c1c[nH]c2ccc(C#CCO)cc2c1=O | - | REF | 58 µM
CCCCN1C(=O)c2ccccc2NC1c1ccc(OC)c(COc2ccc(F)cc2)c1 | luminescence | HepG2 cells | >20 µM
CC(C)COc1nc(N)nc2c1ncn2/C=C1/C[C@@H]1CO | ATP | Akata | >20 µM

Rows are shuffled and stem from different studies. An empty or dashed field is not shown.